A mixed list of measured activities; the numbers were collected in NIAID ChemDB.

Common to all: host cell toxicity; cells: VERO; measure: CC50

CCn: concentration that lowers growth or viability of the cells by n%. Blank or dashed fields: not listed here. Lines come from different laboratories, so protocols vary.

| SMILES | read by | value |
|---|---|---|
| COc1cc2oc(-c3ccccc3)cc(=O)c2c(OC)c1OC |  | 263 µg/mL |
| CCOS(=O)c1nsc(-c2ccc(OCc3ccccc3)cc2)c1C#N | MTT | 3.96 µg/mL |
| Nc1ccn([C@H]2S[C@@H](CO)C=C2F)c(=O)n1 |  | >100 µM |
| NC(=S)N/N=C/c1ccc2oc3ccccc3c2c1 | MTT | 74 µM |
| CCCCCCCCCCCC(=O)OC[C@H](CO[C@@H]1O[C@H](CO)[C@@H](O)[C@H](O)[C@H]1O)OC(=O)CCCCCCCCCCC |  | >100 µg/mL |
| CSc1nsc(-c2ccc(OCc3ccccc3)cc2)c1C#N | MTT | >16.92 µg/mL |
| Nc1nc(=O)n([C@@H]2O[C@@H](CO)C=C2F)cc1F |  | >100 µM |
| C[C@H](CCCC(C)(C)C)C1CCC2C3C[C@H](COS(=O)(=O)O)C4C[C@H](OS(=O)(=O)O)[C@@H](OS(=O)(=O)O)C[C@]4(C)C3CC[C@@]21C.[Na+].[Na+].[Na+] | MTT | 11.89 µg/mL |
| O=c1[nH]cnc2c1ncn2[C@@H]1O[C@@H](CO)C=C1F |  | >100 µM |
| CN(C)/C=C/c1c2c(nc3ccccc13)C(=O)c1cccnc1C2=O |  | <0.26 µg/mL |
| O=c1[nH]cnc2c1ncn2[C@H]1O[C@@H](CO)C=C1F |  | >100 µM |
| Cc1ccc(N2C(=O)CCC2(C#N)c2ccc(OCc3ccccc3)cc2)cc1 | absorbance | 23.9 µM |
| CC[C@@H](C(C)C)[C@@H](O)[C@H](O)[C@@H](C)[C@H]1CC[C@H]2[C@@H]3CC(=O)[C@H]4C[C@H](O)[C@H](O)C[C@]4(C)[C@H]3CC[C@]12C | MTT | 209 µM |
| CCCC[C@@]1(C(=O)CCC)CC[C@@]2(c3ccccc3)ON12 |  | <50 µg/mL |
| CN(C)CCc1c2c(nc3ccccc13)C(=O)c1cccnc1C2=O |  | 1.4 µg/mL |
| Cc1cn2c(C(=O)NCc3ccc(N4CCC(Oc5cccc(C(F)(F)F)c5)CC4)c(F)c3)c(C)nc2s1 | fluorescence | >100 µM |
| N#Cc1c(SCCCCSc2nsc(-c3ccccc3)c2C#N)nsc1-c1ccccc1 | MTT | >4.9 µg/mL |
| Nc1nc2c(ncn2CCC(O)CO)c(=O)[nH]1 |  | 500 µM |
| COc1cccc([C@H](c2cc3cc(Br)ccc3nc2OC)[C@@](O)(CCN(C)C)c2cnc(C)cc2C)c1F |  | >10 µg/mL |
| CN1C(=O)C23SSC1(C)C(=O)N2c1ccccc1C3(C)C | MTT | 19 µM |
| O=c1ccn([C@@H]2O[C@H](CO)[C@](O)(C(F)(F)F)[C@H]2O)c(=O)[nH]1 |  | >200 µg/mL |
| COc1ncccc1Nc1cc2nc3ccccc3n(-c3ccc(F)cc3)c-2cc1=NC1CC1 | MTT | >64 µg/mL |
| C=C(C)C1CC=C(C)/C(=N/NC(=O)c2cccnc2)C1 | MTT | 420 µM |
| Cc1cn2c(C(=O)NCc3ccc(N4CCC5(CC4)OCC(C)CO5)cc3)c(C)nc2s1 | fluorescence | 47 µM |
| Cc1cn([C@@H]2O[C@H](CO)[C@@H](O)[C@@H]2O)c(=O)[nH]c1=O |  | 360 µM |
| O=c1ccn([C@@H]2C=C(F)[C@H](CO)O2)c(=O)[nH]1 |  | >100 µM |
| COc1c(N2C[C@H]3CCCN(C(=O)Cn4cc(CN5C(=O)/C(=N\NC(N)=S)C6(F)C=CC=CC56)nn4)[C@H]3C2)c(F)cc2c1N(C1CC1)CC(C(=O)O)C2=O | MTT | 8 µg/mL |
| Nc1nc2c(ncn2[C@H]2C=C(F)[C@@H](CO)O2)c(=O)[nH]1 |  | >100 µM |
| Cc1ccc(N2C(=O)CCC2(CN)c2ccccc2)cc1 | absorbance | >100 µM |
| COc1cccc(CNC(=O)c2c(C)nc3sc(C)cn23)c1 | fluorescence | >100 µM |
| Cc1ccn2c(N=O)c(-c3ccccc3)nc2c1 | MTT | 52.7 µM |
| Cc1c(C(=O)NCc2ccc(Br)cc2)[n+](=O)c2cc(Cl)ccc2n1[O-] | ATP / luminescence | >40 µg/mL |
| Nc1ccn([C@@H]2S[C@H](CO)C=C2F)c(=O)n1 |  | >100 µM |
| N#CC1(c2ccc(OCc3ccccc3)cc2)CCC(=O)N1Cc1ccccc1 | absorbance | 3 µM |
| Nc1ccn([C@H]2C=C(F)[C@@H](CO)O2)c(=O)n1 |  | >100 µM |
| Nc1nc(NC2CCCCC2)c2ncn(/C=C3/C[C@@H]3CO)c2n1 |  | 72 µM |
| Nc1ncnc2c1ncn2[C@H]1C[C@]12C[C@H]2CO |  | >100 µM |
| Nc1nccc2c1ncn2[C@@H]1C[C@H](CO)[C@@H](O)[C@H]1O |  | >150 µg/mL |
| CO[C@@]12[C@H](COC(N)=O)C3=C(C(=O)C(C)=C(N)C3=O)N1C[C@H]1[C@@H]2N1C(=O)c1ccc(Cl)c(Cl)c1 | MTT | 3.75 µM |
| CCCCC[C@]1(C(=O)CCC)CC[C@@]2(c3ccccc3)ON12 |  | <50 µg/mL |
| COc1cccc([C@H](c2cc3cc(Br)ccc3nc2OC)[C@@](O)(CCN(C)C)c2cc(C)cc(C)n2)c1OC |  | >10 µg/mL |
| Cc1cn2c(C(=O)NCc3ccc(C(F)(F)F)cc3)c(C)nc2s1 | fluorescence | >100 µM |
| O=c1[nH]c(=O)n([C@@H]2O[C@H](CO)[C@@H](O)[C@@H]2O)cc1/C=C/Br |  | 730 µM |
| COC(=O)[C@H](C)NP(=O)(OC[C@H]1C/C1=C/n1cnc2c(OC)nc(N)nc21)Oc1ccccc1 |  | 2.2 µM |
| O=C(Nc1ccccc1)c1c(-c2ccccc2)[n+](=O)c2ccc(Cl)cc2n1[O-] | ATP / luminescence | 8.97 µg/mL |
| Nc1ncnc2c1ncn2[C@@H]1C=C(CO)[C@@H](O)[C@@H]1O |  | >10 µg/mL |
| O=c1[nH]cnc2c1ncn2[C@@H]1C=C(F)[C@H](CO)O1 |  | >100 µM |
| Nc1nc(F)nc2c1ncn2[C@H]1O[C@@H](CO)C=C1F |  | ~173 µM |
| Cc1ccc(NC(C#N)c2ccc(OCc3c(Cl)cccc3Cl)cc2)cc1 | absorbance | 80.9 µM |
| COc1cccc([C@H](c2cc3cc(Br)ccc3nc2OC)[C@@](O)(CCN(C)C)c2cc(C)cnc2C)c1F |  | >10 µg/mL |
| Nc1nc2c(ncn2[C@@H]2O[C@@H](CO)C=C2F)c(=O)[nH]1 |  | >100 µM |
| O=C1c2cccnc2-c2nccc3c2c1nc1ccccc13 |  | <0.04 µg/mL |
| N#Cc1c(-c2ccccc2)s[nH]c1=S | MTT | 13 µg/mL |
| Cc1cn([C@@H]2C=C(F)[C@H](CO)O2)c(=O)[nH]c1=O |  | >100 µM |
| N#Cc1c(SCCCSc2nsc(-c3ccccc3)c2C#N)nsc1-c1ccccc1 | MTT | >4.76 µg/mL |
| Cc1ccc(N2C(=O)CCC2(C#N)c2ccc(OCc3ccc(Cl)cc3Cl)cc2)cc1 | absorbance | 21.8 µM |
| CC[C@@H](C(C)C)[C@@H](O)[C@H](O)[C@@H](C)[C@H]1CC[C@H]2[C@@H]3CC(=O)[C@@]4(O)C[C@@H](OC(C)=O)CC[C@]4(C)[C@H]3CC[C@]12C | MTT | 230 µM |
| Cc1c(C(=O)NCc2ccc(C(F)(F)F)cc2)[n+](=O)c2cc(Cl)ccc2n1[O-] | ATP / luminescence | >40 µg/mL |
| COC1=Cc2c(cc(OC3=C4C(=CC(=O)C4(C)C)c4cc(OC)c(C)cc4C3=O)c3cc(C)c(OC)cc23)C(C)(C)C1=O | absorbance | >10 µM |
| COC(=O)[C@H](C)NP(=O)(OC[C@@H]1C[C@]12C[C@@H]2n1cnc2c(N)ncnc21)Oc1ccccc1 |  | 27 µM |
| Nc1nc(Cl)c2ncn([C@@H]3O[C@@H](CO)C=C3F)c2n1 |  | >100 µM |
| O=C(NN1C(=O)CS(=O)(=O)C1c1ccc(C(F)(F)F)cc1)c1ccncc1 | MTT | >160 µM |
| Nc1ncnc2c1ncn2[C@@H]1C=C(CO)[C@@H](O)C1 |  | >5 µg/mL |
| Nc1ccc(S(=O)(=O)c2ccc(NC(=O)NC34CC5CC(CC(C5)C3)C4)cc2)cc1 | MTT | 144 µg/mL |
| O=C(Nc1ccccc1)c1c(-c2ccccc2)[n+](=O)c2cc(Cl)c(Cl)cc2n1[O-] | ATP / luminescence | 5.541 µg/mL |
| Cc1ncccc1Nc1cc2nc3ccccc3n(-c3ccc(Cl)cc3)c-2cc1=NC1CCOCC1 | MTT | 9.73 µg/mL |
| CCc1cn([C@@H]2O[C@H](CO)[C@@H](O)[C@@H]2F)c(=O)[nH]c1=O |  | >200 µM |
| Cc1c(C(=O)NCc2ccc(C(F)(F)F)cc2)[n+](=O)c2cc(Cl)c(Cl)cc2n1[O-] | ATP / luminescence | >40 µg/mL |
| CCCC[C@]1(C(=O)CCC)CC[C@@]2(c3ccccc3)ON12 |  | <50 µg/mL |
| Cc1c(C(=O)NCc2ccc(C(F)(F)F)cc2)[n+](=O)c2cc(C(F)(F)F)ccc2n1[O-] | ATP / luminescence | >40 µg/mL |
| Nc1ccn([C@@H]2C=C(F)[C@H](CO)O2)c(=O)n1 |  | >100 µM |
| O=C(N/C(C(=O)N1CCCCC1)=C(/Cl)c1ccccc1)c1ccccc1 |  | >81 µM |
| Nc1ncnc2c1ncn2C[C@H](O)CO |  | >5 µg/mL |
| COc1nc2ccc(Br)cc2cc1[C@@H](c1cccc(C)c1)[C@@](O)(CCN(C)C)c1cc(C)nc(C)c1 |  | >10 µg/mL |
| Cc1cn([C@@H]2O[C@H](CO)[C@](O)(C(F)(F)F)[C@H]2O)c(=O)[nH]c1=O |  | >200 µg/mL |

A second listing of 8 rows from above:

SMILES | read by | value
CN1C(=O)C23SSC1(C)C(=O)N2c1ccccc1C3(C)C | MTT | 19 µM
Nc1ccn([C@H]2C=C(F)[C@@H](CO)O2)c(=O)n1 |  | >100 µM
C[C@H](CCCC(C)(C)C)C1CCC2C3C[C@H](COS(=O)(=O)O)C4C[C@H](OS(=O)(=O)O)[C@@H](OS(=O)(=O)O)C[C@]4(C)C3CC[C@@]21C.[Na+].[Na+].[Na+] | MTT | 11.89 µg/mL
COc1cccc([C@H](c2cc3cc(Br)ccc3nc2OC)[C@@](O)(CCN(C)C)c2cnc(C)cc2C)c1F |  | >10 µg/mL
CCCC[C@@]1(C(=O)CCC)CC[C@@]2(c3ccccc3)ON12 |  | <50 µg/mL
Nc1nc2c(ncn2CCC(O)CO)c(=O)[nH]1 |  | 500 µM
CC[C@@H](C(C)C)[C@@H](O)[C@H](O)[C@@H](C)[C@H]1CC[C@H]2[C@@H]3CC(=O)[C@@]4(O)C[C@@H](OC(C)=O)CC[C@]4(C)[C@H]3CC[C@]12C | MTT | 230 µM
O=c1[nH]cnc2c1ncn2[C@@H]1O[C@@H](CO)C=C1F |  | >100 µM